According to patent publication EP0426314B1 (VIRAL TECHNOLOGIES, INC., priority 1989, dated 1995):

Columns and labels:
[1] = general procedure: Boc solid-phase peptide synthesis; Boc-amino acid-OCH2-C6H4-Resin; Boc-Lys(ClZ)-PAM-Resin; DCC; details: whole synthesis
[2] = general procedure: Boc solid-phase peptide synthesis; Boc-Lys(ClZ)-PAM-Resin; DCC; details: whole synthesis, scale 0.32 mmol

## PEPTIDE1{A.Q.Q.A.A.A.D.T.G.H.S.S.Q.V.S.Q.N.Y}$$$$V2.0
[1]; scale 0.5 mmol
  crude mass: 360 mg

## PEPTIDE1{G.A.R.A.S.V.L.S.G.G.E.L.D.R.W.E.K.I.R.L.R.P.G.G.K.K.K.Y.K.L.K.H.K}$$$$V2.0
[1]; analytical HPLC, scale of the general procedure 0.32-0.9 mmol
  crude HPLC purity: about 90% pure
[2]
  crude mass: 580 mg

## PEPTIDE1{I.V.W.A.S.R.E.L.E.R.F.A.V.N.P.G.L.L.Y}$$$$V2.0
[1]; scale 0.9 mmol
  crude mass: 330 mg

HELM strings list residues between dots; [ac] is acetyl, [am] amide, other brackets name non-standard units.
